In PubChem BioAssay AID720532 (National Center for Advancing Translational Sciences (NCATS), 2013) one finds Potency data, which are given here for seven compounds.

Molecules are shown by their SMILES. This is a selection; strong and weak results do not stand in their true shares. Records with an inconclusive call do not appear. Where a call stands in place of a potency, no number is given. Calls of active or inactive are those of the source. Calls follow the shape of the full dose curve; tested in HEK293 cells.
Potency is read from the fitted curve at half-maximal effect.

This assay in a line: qHTS for Inhibitors of binding or entry into cells for Marburg Virus. To be noted: Marburg virus pseudotype entry/binding inhibition, cell-based; series mostly up to 49.2 µM.
On to `CC(=O)C1=CCCC2CCC1N2` (configuration not stated), for which the Potency result is “inactive”.

For the compound `CCNC(C)Cc1ccc2c(c1)OCO2` (configuration not stated), the Potency is active: 11.2 µM.

Turning to `O=C(OC1CN2CCC1CC2)c1ccccc1` (configuration not stated), the Potency result was “inactive”.

For `CCC(C)(OOC(C)(C)C)OOC(C)(C)C`, the Potency entry is “inactive”.

Regarding `CN(C(=O)Cc1ccccc1)[C@H]1CC[C@@]2(CCCO2)C[C@@H]1N1CCCC1`, the Potency result is “inactive”.

Take `NC(=O)Nc1ccc([As](=O)(O)O)cc1`: the Potency result is “inactive”.

`O=[N+]([O-])CC(O)c1ccc([N+](=O)[O-])cc1` (configuration not stated): the Potency entry is “inactive”.
